The values below are quoted from earlier work in patent US11279902B2, “Hyperprotonation cleaning, disinfection, and sterilization compositions and methods” (dated 2022).

The subject of the data set is exotoxin production by gram-positive bacteria. The conditions noted are these: at GML concentrations that do not inhibit bacterial growth.

Take `CCCCCCCCCCCC(=O)OCC(O)CO` (stereo not shown): the exotoxin production result is “inhibits exotoxin production”.
